Measured values from several laboratories, pooled; numbers as filed in NIAID ChemDB.

Shared fields: growth or infection tests; species: HIV-1; measure: EC50

Blank or dashed fields: not listed here. Neighbouring rows are from separate reports. ECn is the concentration giving n% inhibition of infection, replication or growth.

SMILES	conditions	method	mutations	cells	strain or isolate	value
NC1=Nc2c(ncn2CCC/C=C/P(=O)(O)O)C(=O)C1		cytopathic effect / MTT		MT-4	RF	56 µM
Cc1cn([C@H]2C[C@H](N=[N+]=[N-])[C@@H](CO)O2)c(=O)[nH]c1=O		plaque count	RT-M41L D67N K70R M184V T215Y	HT4LACZ-1 + HT4 LacZ-1	RR/Q184 (RT M41L D67N K70R T215Y M184V)	0.07 µM
O=c1[nH]cnc2c1ncn2[C@H]1CC[C@@H](CO)O1		syncytia	RT-E138K	CEM	IIIB	15 µM
Cc1ccnc2c1NC(=O)c1cccnc1N2C1CC1	clinical isolate	cytopathic effect / XTT		PBMC	TEKI	0.1 µM
O=C1C=C2CC(C3=C4C(C5CC6=C(C7CC8=C(C9CC%10=CC(=O)O[C@@]%10%11C[C@@H]9N9CCCC9%11)C(=O)O[C@@]89C[C@@H]7N7CCCC79)C(=O)O[C@@]67C[C@@H]5N5CCCC57)=C[C@@H]5C[C@@]4(OC3=O)C3CCCN35)[C@@H]3C[C@@]2(O1)C1CCCN13		MTT		MT-4	NL4-3	99.1 µM
O=c1[nH]c(=O)n([C@H]2C[C@H](F)[C@@H](CO)O2)cc1CO		cytopathic effect / trypan blue		MT-4	IIIB	100 µM
COC(=O)[C@H]1CC[C@H]2[C@@H]3CCC4=CC(=O)CC[C@]4(C)[C@H]3CC[C@]12C		p24		H9	IIIB	8.47 µM
Cc1cn([C@H]2C[C@@H](N=[N+]=[N-])C[C@@H](CO)O2)c(=O)[nH]c1=O				MT-4	IIIB	>333 µM
CC(C)=CCN1Cc2cc(Cl)cc3[nH]c(=S)n(c23)C[C@@H]1C		syncytia	RT-E138K	CEM	IIIB	0.63 µM
Cc1cc(N=C/C=C/c2ccccc2)ccc1N1C(=O)c2ccc(Cl)cc2C1=O		MTT / absorbance		MT-4	IIIB	0.235 µM
O=C1C=C2C(C3CC4=C(C5CC6=CC(=O)O[C@@]67C[C@@H]5N5CCCC57)C(=O)O[C@@]45C[C@@H]3N3CCCC35)=C[C@@H]3C[C@@]2(O1)C1CCCN13		MTT		MT-4	NL4-3	52.4 µM
CC(=O)c1ccc(NC(=O)CSc2nc3ncccc3n2-c2ccc(C3CC3)c3ccccc23)c(Br)c1		MTT		MT-4	IIIB	0.15 µM
CN1C(=O)N(Cc2ccccc2)S(=O)(=O)c2cscc21		syncytia		CEM	IIIB	2.3 µM
O=c1[nH]cnc2c1ncn2[C@H]1CC[C@@H](CO)O1		cytopathic effect / MTT		MT-4	RF	13 µM
CC(C)=CCN1Cc2cc(Cl)cc3[nH]c(=S)n(c23)C[C@@H]1C		cytopathic effect / XTT	RT-L100I	CEM	IIIB	5.6 µM
CC1(C)CC[C@]2(C(=O)O)CC[C@]3(C)C(=CC[C@@H]4[C@@]5(C)CC[C@H](O[C@@H]6OC[C@@H](O)[C@H](OC7O[C@H](CO)[C@H](O)[C@H](O)[C@H]7O)[C@H]6O)C(C)(C)[C@@H]5CC[C@]43C)[C@@H]2C1		p24 / ELISA		PBMC	BaL	1.84 µg/mL
NC1=Nc2c(ncn2CCC(/C=C/P(=O)(O)O)CO)C(=O)C1		p24		C8166	RF	8 µM
Fc1cccc(F)c1[C@@H]1SCc2nc3ccccc3n21		cytopathic effect / XTT		CEM + CEM-SS	RF	5.8 µM
Oc1ccccc1CN(CCN1CCCCC1)CC1CCCN(C2CCCC2)C1		β-galactosidase		MAGI	BaL	>10 µM
CC(Sc1nc2ncccc2n1-c1ccc(C2CC2)c2ccccc12)C(=O)Nc1ccc(S(N)(=O)=O)cc1Cl		MTT		MT-4	RES056	>3.2 µM
O=C1N(Cc2ccccc2)c2cscc2S(=O)(=O)N1Cc1ccccc1		syncytia	RT-L100I	CEM		≥10.4 µM
Cc1cn([C@H]2C[C@H](N=[N+]=[N-])[C@@H](CO)O2)c(=O)[nH]c1=O		cytopathic effect / trypan blue		MT-4	IIIB	0.003 µM
Cc1cc(N=Cc2ccc(Cl)cc2)ccc1N1C(=O)c2ccc(Cl)cc2C1=O		MTT / absorbance		MT-4	IIIB	0.119 µM
COC(=O)c1ccc(NC(=O)CSc2nc3ncccc3n2-c2ccc(C3CC3)c3ccccc23)c([N+](=O)[O-])c1		MTT		MT-4	IIIB	0.27 µM
CC(C)(C)[Si](C)(C)OC[C@H]1O[C@@H](n2ccc(=O)[nH]c2=O)[C@H](O[Si](C)(C)C(C)(C)C)C12OS(=O)(=O)C=C2N		syncytia	RT-E138K	CEM	IIIB	>8 µM
Fc1cccc(F)c1C1SCc2nc3ccccc3n21		cytopathic effect / XTT		CEM	IIIB	1.39 µM
C[C@]12CC[C@H]3[C@@H](CC=C4NC(=O)CC[C@@]43C)[C@@H]1CC[C@@H]2C(=O)O		p24		H9	IIIB	3.85 µM
C=C(C)[C@@]12OC3(/C=C/C=C/C=C/CCC)O[C@@H]1[C@@H]1[C@@H]4O[C@]4(CO)[C@@H](O)[C@]4(O)C(=O)C(C)=C[C@H]4[C@@]1(O3)[C@H](C)[C@H]2OC(C)=O		cytopathic effect				0.00563 µM
CCOC(=O)c1ccc(NC(=O)CSc2nc3ncccc3n2-c2ccc(C3CC3)c3ccccc23)c(Cl)c1		MTT		MT-4	IIIB	0.73 µM
Cc1ccnc2c1NC(=O)c1cccnc1N2C1CC1		syncytia		CEM	IIIB	0.12 µM
NS(=O)(=O)c1ccc(NC(=O)CSc2nc3ncccc3n2-c2ccc(C3CC3)c3ccccc23)c(Br)c1		MTT		MT-4	RES056	>1.69 µM
CCC1(c2ccc(COc3ccccc3)cc2)Oc2ccccc2-n2cccc2C1=O		cytopathic effect		C8166	IIIB	0.083 µM
NCCCCN(Cc1nc2ccccc2[nH]1)C1CCCc2cccnc21		MTT		MT-4	NL4-3	0.026 µM
C=C(C)[C@]12C[C@@H](C)[C@@]34OC(/C=C/C=C/CCCCC)(O[C@@H]1[C@@H]3[C@@H]1O[C@]1(CO)[C@@H](O)[C@]1(O)C(=O)C(C)=C[C@H]14)O2		cytopathic effect				0.00564 µM
CCN1C(=O)N(Cc2cccc(Cl)c2)S(=O)(=O)c2cscc21		syncytia	RT-E138K	CEM		9.2 µM
CC(Sc1nc2ncccc2n1-c1ccc(C2CC2)c2ccccc12)C(=O)Nc1ccc(C(N)=O)cc1Br		MTT		MT-4	IIIB	0.2 µM
Cc1cc(NS(=O)(=O)c2ccc(Cl)cc2)ccc1N1C(=O)c2ccc(Cl)cc2C1=O		MTT / absorbance		MT-4	IIIB	0.003 µM
c1cc(CN2CCCNCCNCCCNCC2)ccc1CN1CCCNCCNCCCNCC1		β-galactosidase		MAGI	BaL	>10 µM
CC(Sc1nc2ncccc2n1-c1ccc(C2CC2)c2ccccc12)C(=O)Nc1ccc(C(N)=O)cc1Cl		MTT		MT-4	RES056	>2.01 µM
CCn1c(=O)c(C)cn([C@@H]2O[C@H](CO[Si](C)(C)C(C)(C)C)C3(OS(=O)(=O)C=C3N)[C@H]2O[Si](C)(C)C(C)(C)C)c1=O		syncytia	RT-E138K	CEM	IIIB	>80 µM
CCC(C)(NC(=O)c1ccc(NC(=O)CSc2nc3ncccc3n2-c2ccc(C3CC3)c3ccccc23)c(Cl)c1)C(=O)O		MTT		MT-4	IIIB	1.41 µM
O=C1C=C2CC(C3=C4CC(C5=C[C@@H]6C[C@@]7(OC(=O)C(C8CC9=C(C%10CC%11=CC(=O)O[C@@]%11%12C[C@@H]%10N%10CCCC%10%12)C(=O)O[C@@]9%10C[C@@H]8N8CCCC8%10)=C57)C5CCCN56)[C@@H]5C[C@@]4(OC3=O)C3CCCN35)[C@@H]3C[C@@]2(O1)C1CCCN13		MTT		MT-4	NL4-3	139 µM

The last 6 rows once more:

{"SMILES": "Cc1cc(NS(=O)(=O)c2ccc(Cl)cc2)ccc1N1C(=O)c2ccc(Cl)cc2C1=O", "method": "MTT / absorbance", "cells": "MT-4", "strain or isolate": "IIIB", "value": "0.003 µM"}
{"SMILES": "c1cc(CN2CCCNCCNCCCNCC2)ccc1CN1CCCNCCNCCCNCC1", "method": "β-galactosidase", "cells": "MAGI", "strain or isolate": "BaL", "value": ">10 µM"}
{"SMILES": "CC(Sc1nc2ncccc2n1-c1ccc(C2CC2)c2ccccc12)C(=O)Nc1ccc(C(N)=O)cc1Cl", "method": "MTT", "cells": "MT-4", "strain or isolate": "RES056", "value": ">2.01 µM"}
{"SMILES": "CCn1c(=O)c(C)cn([C@@H]2O[C@H](CO[Si](C)(C)C(C)(C)C)C3(OS(=O)(=O)C=C3N)[C@H]2O[Si](C)(C)C(C)(C)C)c1=O", "method": "syncytia", "mutations": "RT-E138K", "cells": "CEM", "strain or isolate": "IIIB", "value": ">80 µM"}
{"SMILES": "CCC(C)(NC(=O)c1ccc(NC(=O)CSc2nc3ncccc3n2-c2ccc(C3CC3)c3ccccc23)c(Cl)c1)C(=O)O", "method": "MTT", "cells": "MT-4", "strain or isolate": "IIIB", "value": "1.41 µM"}
{"SMILES": "O=C1C=C2CC(C3=C4CC(C5=C[C@@H]6C[C@@]7(OC(=O)C(C8CC9=C(C%10CC%11=CC(=O)O[C@@]%11%12C[C@@H]%10N%10CCCC%10%12)C(=O)O[C@@]9%10C[C@@H]8N8CCCC8%10)=C57)C5CCCN56)[C@@H]5C[C@@]4(OC3=O)C3CCCN35)[C@@H]3C[C@@]2(O1)C1CCCN13", "method": "MTT", "cells": "MT-4", "strain or isolate": "NL4-3", "value": "139 µM"}